Source: PubChem BioAssay AID624099 (ICCB-Longwood, 2012)
Here is one part, drawn at random, of about 21,000 reagents tested. 497 of them (2.4%) count as active. 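Higher z means weaker E2 silencing; only reporter increases were scored, and knock-downs that hurt cell survival may mask genuine repressor factors.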

Assay: 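Human genes that papillomavirus E2 requires to repress the HPV18 LCR promoter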 (primary screen)
Cells: human C33A cervical carcinoma cells (HPV-negative) stably expressing BPV1 E2 and an HPV18 LCR luciferase reporter
Reagents: siRNA pool against human genes, 40 nM
Timing: 72 h
Detection: 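Per-well luciferase luminescence, z-scored on each plate against the plate mean and SD with control wells left out, then averaged across three replicate plates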
Reading the numbers: mean z-score and z-score: higher = stronger reporter signal, weaker E2 silencing
Call rule: 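Hit if mean z-score reaches 2 and two or more of three replicate z-scores also reach 2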

target	PubChem SID	mean z-score	z-score, replicate A	z-score, replicate B	z-score, replicate C	Outcome
TRAPPC9 (trafficking protein particle complex subunit 9)	SID134323204	-0.58	-0.4	-0.55	-0.81	inactive
P2RX5 (purinergic receptor P2X 5)	SID134311704	-0.69	-0.59	-0.84	-0.64	inactive
CCN1 (cellular communication network factor 1)	SID134310345	0.5	-0.48	0.95	1.03	inactive
AGBL1 (AGBL carboxypeptidase 1)	SID134321025	0.74	0.55	1.04	0.64	inactive
ACTL6B (actin like 6B)	SID134314169	-1.17	-1.05	-1.39	-1.08	inactive
RPL13AP17 (ribosomal protein L13a pseudogene 17)	SID134326914	-0.12	0.21	-0.16	-0.42	inactive
RBPMS2 (RNA binding protein, mRNA processing factor 2)	SID134323138	-0.41	-0.34	-0.43	-0.46	inactive
PHF19 (PHD finger protein 19)	SID134326471	-0.68	-0.73	-0.8	-0.51	inactive
EIF4ENIF1	SID134317468	-0.66	-0.7	-0.67	-0.59	inactive
DQX1 (DEAQ-box RNA dependent ATPase 1)	SID134319425	-0.41	-0.4	0.01	-0.84	inactive
CYP2E1 (cytochrome P450 family 2 subfamily E member 1)	SID134314767	0.76	0.7	0.66	0.94	inactive
LIPC (lipase C, hepatic type)	SID134313600	-0.06	0.1	-0.23	-0.05	inactive
SLAMF9 (SLAM family member 9)	SID134319163	0.21	0.31	0.41	-0.1	inactive
POLE2 (DNA polymerase epsilon 2, accessory subunit)	SID134322461	-1.04	-1.36	-0.64	-1.13	inactive
CEP72 (centrosomal protein 72)	SID134324237	-0.94	-1.35	-0.95	-0.52	inactive
WFIKKN1	SID134317170	1.11	1.31	0.67	1.34	inactive
UNC93B3 (unc-93 homolog B3 (pseudogene))	SID134325654	-0.16	-0.35	-0.14	0	inactive
STK40 (serine/threonine kinase 40)	SID56479025	0.7	0.25	0.88	0.96	inactive
CENPBD1P (CENPB DNA-binding domain containing 1, pseudogene)	SID134320539	0.71	0.77	0.92	0.46	inactive
NOM1 (nucleolar protein with MIF4G domain 1)	SID134326291	0.4	0.11	0.42	0.66	inactive
TLE6 (TLE family member 6, subcortical maternal complex member)	SID134318591	0.28	0.33	0.02	0.49	inactive
CD3E (CD3 epsilon subunit of T-cell receptor complex)	SID56478725	0.44	0.22	0.61	0.48	inactive
LRRC46 (leucine rich repeat containing 46)	SID134319168	-0.33	-0.31	-0.75	0.06	inactive
B3GALT6 (beta-1,3-galactosyltransferase 6)	SID134324930	-1.08	-1.09	-1.15	-1.01	inactive
LOC401819 (retired record)	SID134328579	-0.11	-0.07	-0.29	0.03	inactive
ACBD4 (acyl-CoA binding domain containing 4)	SID134318580	1.04	1.05	0.9	1.18	inactive
CGB1 (chorionic gonadotropin subunit beta 1)	SID134317831	0.44	2.05	-0.33	-0.39	inactive
STAT5A (signal transducer and activator of transcription 5A)	SID134310785	-0.61	-0.77	-0.64	-0.43	inactive
PNLIPRP3 (pancreatic lipase related protein 3)	SID134314869	0.9	1.42	0.56	0.71	inactive
ANKEF1 (ankyrin repeat and EF-hand domain containing 1)	SID134320456	0.03	-0.24	0.04	0.29	inactive
NBEAL2 (neurobeachin like 2)	SID134325714	1.66	1.4	2.39	1.2	inactive
ITIH1 (inter-alpha-trypsin inhibitor heavy chain 1)	SID134323389	1.33	1.09	1.4	1.5	inactive
PLEKHG5 (pleckstrin homology and RhoGEF domain containing G5)	SID134318072	-0.3	-0.47	-0.4	-0.02	inactive
GAGE4 (G antigen 4)	SID134315625	-1.38	-1.48	-1.47	-1.19	inactive
MARCHF2 (membrane associated ring-CH-type finger 2)	SID134312111	0.34	0.72	-0.09	0.39	inactive
COL6A5 (collagen type VI alpha 5 chain)	SID134319790	1.39	1.21	1.41	1.54	inactive
CEP170 (centrosomal protein 170)	SID134324859	0.02	-0.09	0.1	0.03	inactive
TLR9 (toll like receptor 9)	SID134310255	0.28	0.47	0.21	0.15	inactive
DMP1 (dentin matrix acidic phosphoprotein 1)	SID134323561	-0.89	-0.79	-0.85	-1.04	inactive

3 entries from above, arranged by “z-score, replicate B”, low to high:
target	PubChem SID	mean z-score	z-score, replicate A	z-score, replicate B	z-score, replicate C	Outcome
EIF4ENIF1	SID134317468	-0.66	-0.7	-0.67	-0.59	inactive
DQX1 (DEAQ-box RNA dependent ATPase 1)	SID134319425	-0.41	-0.4	0.01	-0.84	inactive
CYP2E1 (cytochrome P450 family 2 subfamily E member 1)	SID134314767	0.76	0.7	0.66	0.94	inactive
